Laboratory results published in patent US8552176B2 (priority 2010, dated 2013).

Test system: ten-member panel of human carcinomas
Test: Cell proliferation assay, summary across the panel
Type: cell-based
Conditions: read-out: GI50 values; range across the ten-member panel

CONCCCCc1ccc(N(CCCl)CCCl)cc1
GI50: 1100 to 4400 nM
